Data source: PubChem BioAssay AID624099 (ICCB-Longwood, 2012)
Shown is an unselected part of about 21,000 deposited reagents. Of all reagents, 497 (2.4%) were called active. 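Higher z means weaker E2 silencing; only reporter increases were scored, and knock-downs that hurt cell survival may mask genuine repressor factors.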 A number with no mark means an inactive call.

Aim: 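Knock-downs relieving repression by E2 of an HPV18 LCR luciferase reporter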 (primary screen)
System: human C33A cervical carcinoma cells (HPV-negative) stably expressing BPV1 E2 and an HPV18 LCR luciferase reporter
Reagents: siRNA pool against human genes, 40 nM
Time to read-out: 72 h
Read-out: 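Per-well luciferase luminescence, z-scored on each plate against the plate mean and SD with control wells left out, then averaged across three replicate plates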
Reading the numbers: mean z-score and z-score: higher = stronger reporter signal, weaker E2 silencing
Hit rule: 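Mean z ≥ 2 together with z ≥ 2 in two or more of the three replicates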

gene symbol	mean z-score	z-score, replicate A	z-score, replicate B	z-score, replicate C
ARSG	0.44	0.79	0.51	0.01
SMIM17	-0.75	-0.91	-0.61	-0.73
LOC729417 (retired record)	0.41	0.55	0.51	0.18
CCDC9	-1.44	-1.64	-1.18	-1.51
DSTYK	0.34	0.28	0.42	0.32
CD99	-0.64	-0.67	-0.4	-0.86
MRPL14	0.06	0.27	0.12	-0.2
FLJ44674 (retired record)	-0.3	-0.38	0.02	-0.54
DRD5	0.93	0.78	0.91	1.09
SRP54	0.76	0.65	0.87	0.76
DNAJC15	0.18	0.44	-0.06	0.17
LEPR	-0.56	-0.59	-0.53	-0.58
CHURC1	-1.04	-1.03	-1.32	-0.77
OR4F6	0.41	0.44	0.23	0.54
RIMS1	1.06	1.12	0.4	1.67
SACM1L	-0.92	-1	-0.83	-0.95
FANCA	1.22	1.04	1.31	1.32
EWSR1	-1.55	-1.16	-1.67	-1.83
PLSCR5	0	0.23	-0.1	-0.14
ANKRD11	0.54	0.62	0.69	0.32
LCE2A	-0.29	-0.38	-0.49	0.01
NR2F1	-0.09	-0.07	0.19	-0.4
GBP4	-0.32	0.03	-0.63	-0.36
RIMOC1	0.95	0.78	0.99	1.06
LOC389183 (retired record)	-1.37	-1.47	-1.85	-0.8
MAP2K2	-0.27	-0.15	-0.23	-0.42
AFF2	0.21	0.32	0.1	0.22

Sorted by “mean z-score” (lowest first): 5 of the entries above.
gene symbol	mean z-score	z-score, replicate A	z-score, replicate B	z-score, replicate C
EWSR1	-1.55	-1.16	-1.67	-1.83
LCE2A	-0.29	-0.38	-0.49	0.01
NR2F1	-0.09	-0.07	0.19	-0.4
PLSCR5	0	0.23	-0.1	-0.14
ANKRD11	0.54	0.62	0.69	0.32

The results go on:
gene symbol	mean z-score	z-score, replicate A	z-score, replicate B	z-score, replicate C
TTC41P	-0.49	-0.64	-0.22	-0.6
ACAT2	-1.23	-1.22	-1.25	-1.23
ADCY7	-0.05	0.27	-0.33	-0.08
ABCA5	-1.16	-1.29	-1.02	-1.16
ZNF79	0.15	0.31	0.02	0.13
LOC400707 (retired record)	-0.38	-0.51	-0.49	-0.14
SCAF8	-0.8	-0.81	-0.91	-0.69
PPP1CC	-0.35	-0.42	-0.37	-0.25
SLC39A7	0.63	0.9	0.55	0.43
LOC338999 (retired record)	-1.55	-1.54	-1.59	-1.54
LINC00614	0.91	0.61	1.13	1.01
CYB561D1	-1.21	-1.35	-1.16	-1.11
RPSAP24	-0.52	-0.65	-0.55	-0.37
SAR1B	0.69	0.32	0.48	1.28
NAE1	0.84	0.99	0.9	0.64
MCOLN1	0.28	0.04	0.2	0.6
CARD16	0.31	0.1	0.56	0.27
ZNF737	-1.16	-1.08	-1.23	-1.15
LPIN2	-0.48	-0.53	-0.59	-0.31
PDS5A	-0.62	-0.51	-0.87	-0.47
MUC4	0.38	0.7	0.13	0.3
MACROD1	-0.4	-0.56	-0.7	0.06
NRIP1	0.44	0.55	0.41	0.36
IL22	-0.94	-0.97	-0.69	-1.15
LOC401471	0.89	0.84	1.01	0.83
HNF1A	0.41	0.37	0.27	0.59
KMT5A	-0.71	-0.97	-0.6	-0.55
SIRT6	0.65	0.71	0.61	0.63
PDXP	-0.6	-0.84	-0.16	-0.8
SLC6A11	0.35	0.51	0.09	0.46
